Source: PMC10810642 (2024)

Target: purified HA protein of the A/Anas/KR/2017/2.3.4.4b subclade (influenza A virus A/Anas/KR/2017 (H5N6, …))
Assay: SPR

B1: #11.4 mAb (antibody, V domains shown)
VH: QVQLQQSGAELVRPGTSVKISYKASGSTFTNYWLGWVKQRPGHGLEWIGDIYPGGGYANYNEKFKGKATLTADTSSSTAYMQLSSLTSEDSAVYFCARHRYEYFDVWGAGTTVTVSS
VL: DIQMTQSPSSLSASLGERVSLTCRASQDIGSSLNWLQQEPDGTIKRLIYATSSLDSGVPKRFSGSRSGSDYSLTISSLESEDFVDYYCLQYASSPYTFGGGTKLEIK
Question: How did the koff turn out when B1 was run?
Answer: 7.4e-06 s⁻¹
